Anti-infective test results gathered from many reports (values: NIAID ChemDB through PubChem).

Shared fields: tests in culture; organism: HIV-2; read-out: EC50

ECn is the concentration giving n% inhibition of infection, replication or growth. An empty or dashed field is not shown. Neighbouring rows are from separate reports.

smiles	method	strain or isolate	cell line	value
C=C1[C@@H](CO)C[C@H]1n1cnc2c(N)ncnc21	cytopathic effect / MTT	ROD	MT-4	63 µM
Cc1cn([C@H]2C[C@H](N=[N+]=[N-])[C@@H](CO)O2)c(=O)[nH]c1=O	cytopathic effect / MTT	-	MT-4	<10 µg/mL
CS(=O)(=O)c1ccc(OP(=O)(OC[C@@H]2C=C[C@H](n3ccc(=O)[nH]c3=O)O2)OC[C@@H]2C=C[C@H](n3ccc(=O)[nH]c3=O)O2)cc1	cytopathic effect / trypan blue	ROD	MT-4	>250 µM
Cc1cc(C)cc(C(=O)c2cccnc2Nc2ccc(CC#N)cc2)c1	MTT	ROD	MT-4	>97.48 µM
O=c1ccn([C@H]2C=C[C@@H](CO)O2)c(=O)[nH]1	cytopathic effect / trypan blue	ROD	MT-4	>20 µM
Cc1cc(C)cc(C(=O)c2cccnc2Oc2ccc(C(=O)O)cc2)c1	MTT	ROD	MT-4	>150 µM
O=C(NC1CCNCC1)c1cc(O)c(O)c(O)c1	MTT	ROD	MT-4	>42.1 µM
CO[C@@H]1[C@@H](O)[C@@H](O)[C@H](O)[C@H](O)[C@H]1n1ccc(N)nc1=O	cytopathic effect / MTT	-	MT-4	>10 µg/mL
CS(=O)(=O)N1CCC(NC(=O)c2cc(O)c(O)c(O)c2)CC1	MTT	ROD	MT-4	>42.4 µM
O=S1(=O)N=C(Nc2ccc(F)cc2)C=C(Cc2cccc3ccccc23)N1	MTT	ROD	MT-4	>158 µM
O=C(NC1CCN(C(=O)c2ccccc2)CC1)c1cc(O)c(O)c(O)c1	MTT	ROD	MT-4	>38.3 µM
Cc1cn([C@H]2C=C[C@@H](CO)O2)c(=O)[nH]c1=O	cytopathic effect / syncytia	ROD	CEM + CEM TK-	>10 µM
Cn1ncc2c1S(=O)(=O)N(Cc1cccc(Cl)c1)C(=O)N2Cc1ccc(Cl)cc1	cytopathic effect / MTT	ROD	MT-4	>246.1 µM
C#Cc1ccc(Nc2nccc(Oc3c(C)cc(-c4cn(Cc5ccc([N+](=O)[O-])cc5)nn4)cc3C)n2)cc1	MTT	ROD	MT-4	>160 µM
Nc1ncnc2c1ncn2CCOCP(=O)(O)O	cytopathic effect	ROD	MT-4	14 µM
Cc1cn([C@H]2CC(SSC(Cl)(Cl)Cl)[C@@H](CO)O2)c(=O)[nH]c1=O	syncytia	ROD	CEM	<27.5 µM
CSc1ccc(OP(=O)(OC[C@@H]2C=C[C@H](n3cnc4c(=O)[nH]cnc43)O2)OC[C@@H]2C=C[C@H](n3cnc4c(=O)[nH]cnc43)O2)cc1	cytopathic effect / trypan blue	ROD	MT-4	>250 µM
CC(C)c1cc2c(c(O)c1O)[C@@]1(C(=O)O)CCCC(C)(C)C1CC2	-	EHO	MT-2	0.011 µM
Cc1ccc(NC2=NS(=O)(=O)NC(Cc3ccc4ccccc4c3)=C2)cc1C	MTT	ROD	MT-4	>147 µM
Cc1cc(C)cc(C(=O)c2cccnc2Nc2ccc(C#N)cc2)c1	MTT	ROD	MT-4	>128 µM
NCC(O)c1ccc(O)c(O)c1	syncytia	ROD	CEM	13 µg/mL
C#Cc1ccc(Nc2nccc(Oc3c(C)cc(-c4cn(CC(=O)Nc5ccc(Br)cc5)nn4)cc3C)n2)cc1	MTT	ROD	MT-4	>19.78 µM
O=C(CSc1nncnc1-c1ccccc1Cl)Nc1ccccc1[N+](=O)[O-]	MTT	ROD	MT-4	>63 µM
Cc1cc(C)cc(C(=O)c2cccnc2Oc2ccc(C=O)cc2)c1	MTT	ROD	MT-4	>33.65 µM
NC(=NCCCNc1ccc2[nH]ccc2c1)N[N+](=O)[O-]	MTT	ROD	MT-4	>360 µM
Cc1cn([C@H]2C[C@H](N=[N+]=[N-])[C@@H](CO)O2)c(=O)[nH]c1=O	MTT	ROD	MT-4	0.004 µM
COC(=O)CC(OP(=O)(OC[C@@H]1C=C[C@H](n2cc(C)c(=O)[nH]c2=O)O1)OC(CC(=O)OC)c1ccc(OC(C)=O)cc1)c1ccc(OC(C)=O)cc1	cytopathic effect / syncytia	ROD	CEM + CEM TK-	0.2 µM
CN=C1N(C)C(=O)OC12[C@@H](CO[Si](C)(C)C(C)(C)C)O[C@@H](n1cc(C)c(=O)n(C)c1=O)[C@@H]2O[Si](C)(C)C(C)(C)C	-	ROD	MT-4	>7 µM
CCc1c(Sc2cccc3ccccc23)nc(SCC(=O)c2ccc(Cl)cc2)[nH]c1=O	cytopathic effect / MTT	ROD	MT-4	>25.5 µM
O=S1(=O)N=C(Nc2cccc(Cl)c2)C=C(Cc2ccccc2)N1	MTT	ROD	MT-4	>189 µM
Cc1cn([C@H]2CC[C@@H](CO)O2)c(=O)[nH]c1=O	cytopathic effect / trypan blue	ROD	MT-4	3.9 µM
O=C(NC1CCN(S(=O)(=O)c2ccc(F)cc2)CC1)c1cc(O)c(O)c(O)c1	MTT	ROD	MT-4	>178.4 µM
O=S1(=O)N=C(Nc2ccc(Cl)cc2)C=C(Cc2cccc3ccccc23)N1	MTT	ROD	MT-4	>147 µM
Cc1cc(C#N)cc(C)c1Oc1nc(Nc2ccc(C#N)cc2)nc(N)c1Br	MTT	ROD	MT-4	>4.41 µM
Cc1cn([C@H]2C=C[C@@H](COP(=O)(OCc3ccccc3)OCc3ccccc3)O2)c(=O)[nH]c1=O	cytopathic effect / syncytia	ROD	CEM + CEM TK-	>10 µM
O=c1[nH]cnc2c1ncn2[C@H]1CC[C@@H](CO)O1	syncytia	ROD	CEM	1.8 µM
Cn1ncc2c1S(=O)(=O)N(Cc1cccc(Cl)c1)C(=O)N2Cc1ccccc1Br	cytopathic effect / MTT	ROD	MT-4	>252.3 µM
CC(C)(C)OC(=O)N1CCC(NC(=O)c2cc(O)c(O)c(O)c2)CC1	MTT	ROD	MT-4	>42.9 µM
CCc1c(Sc2cccc3ccccc23)nc(SCC(=O)c2ccc(F)cc2)[nH]c1=O	cytopathic effect / MTT	ROD	MT-4	>23.11 µM
CN=C(N)NCCNc1ccc2[nH]ccc2c1	MTT	ROD	MT-4	>277 µM
C[C@@H](Cn1cnc2c(N)ncnc21)OCP(=O)(O)O	cytopathic effect / trypan blue	ROD	MT-4	217 µM
NC(=NCC(=O)NCCNc1ccc2[nH]ccc2c1)N[N+](=O)[O-]	MTT	ROD	MT-4	>391 µM
Cc1cc(C)cc(C(=O)c2cccnc2Nc2cccnc2)c1	MTT	ROD	MT-4	>41.63 µM
C#Cc1ccc(Nc2nccc(Oc3c(C)cc(-c4cn(CC(=O)OC)nn4)cc3C)n2)cc1	MTT	ROD	MT-4	>10.35 µM
O=C(CSc1nncnc1-c1ccccc1Cl)Nc1ccccc1Cl	MTT	ROD	MT-4	>90 µM
O=C(NC1CCN(C(=O)c2ccc(F)cc2)CC1)c1cc(O)c(O)c(O)c1	MTT	ROD	MT-4	>30.8 µM
C#Cc1ccc(Nc2nccc(Oc3c(C)cc(-c4cn(CCC(=O)OC)nn4)cc3C)n2)cc1	MTT	ROD	MT-4	>23.76 µM
Cn1ncc2c1S(=O)(=O)N(Cc1cccc(Cl)c1)C(=O)N2CC#N	cytopathic effect / MTT	ROD	MT-4	>17.6 µM
Nc1nc2c(ncn2C2CC(CO)(CO)C2)c(=O)[nH]1	cytopathic effect / MTT	ROD	MT-4	>500 µM
Cc1cn([C@H]2C[C@H](N=[N+]=[N-])[C@@H](CO)O2)c(=O)[nH]c1=O	-	ROD	MT-2	0.018 µM
C#Cc1ccc(Nc2nccc(Oc3c(C)cc(-c4cn(Cc5ccc(O)cc5)nn4)cc3C)n2)cc1	MTT	ROD	MT-4	>2.1 µM
CN(C)C(=O)N1CCC(NC(=O)c2cc(O)c(O)c(O)c2)CC1	MTT	ROD	MT-4	>34.3 µM
CSc1ccc(OP(=O)(OC[C@@H]2CC[C@H](n3cnc4c(=O)[nH]cnc43)O2)OC[C@@H]2CC[C@H](n3cnc4c(=O)[nH]cnc43)O2)cc1	cytopathic effect / trypan blue	ROD	MT-4	≥250 µM
NCCCNc1ccc2[nH]ccc2c1	MTT	ROD	MT-4	>229 µM
CCOCn1c([Se]c2ccccc2)c(CC)c(=O)[nH]c1=O	RT activity	ROD	PBMC	14.6 µM
C#Cc1ccc(Nc2nccc(Oc3c(C)cc(-c4cn(Cc5ccc(C#N)cc5)nn4)cc3C)n2)cc1	MTT	ROD	MT-4	>7.17 µM
Nc1ncnc2c1ncn2CCOCP(=O)(O)O	cytopathic effect / trypan blue	ROD	MT-4	7.5 µM
N=C(CNC(=O)NCCCNc1ccc2[nH]ccc2c1)N[N+](=O)[O-]	MTT	ROD	MT-4	>375 µM
O=S1(=O)NC(Cc2ccccc2)=CC(=NCCc2ccccc2)N1	MTT	ROD	MT-4	>192 µM
CCOC(=O)c1cc(O)c(O)c(O)c1	syncytia	ROD	CEM	2.7 µg/mL
Nc1nc2c(ncn2[C@@H]2C[C@H](CO)[C@H]2CO)c(=O)[nH]1	cytopathic effect / MTT	ROD	MT-4	17 µM
Cn1ncc2c1S(=O)(=O)N(Cc1cccc(Cl)c1)C(=O)N2Cc1ccc(F)cc1	cytopathic effect / MTT	ROD	MT-4	>216.1 µM
C#Cc1ccc(Nc2nccc(Oc3c(C)cc(-c4cn(CCc5ccccc5)nn4)cc3C)n2)cc1	MTT	ROD	MT-4	>5.69 µM
Cc1cc(C)cc(C(=O)c2cccnc2Nc2ccc(C(F)(F)F)cc2)c1	MTT	ROD	MT-4	>106 µM
CC(=O)O[C@@]12C[C@@H](C)[C@@]3(O)[C@@H](C=C(CO)C[C@]4(O)C(=O)C(C)=C[C@@H]34)[C@@H]1C2(C)C	cytopathic effect	CBL-20	C8166	0.568 µM
CS(=O)(=O)c1ccc(OP(=O)(OC[C@@H]2C=C[C@H](n3cnc4c(N)ncnc43)O2)OC[C@@H]2C=C[C@H](n3cnc4c(N)ncnc43)O2)cc1	cytopathic effect / trypan blue	ROD	MT-4	133 µM
C#Cc1ccc(Nc2nccc(Oc3c(C)cc(-c4cn(Cc5ccc(C(N)=O)cc5)nn4)cc3C)n2)cc1	MTT	ROD	MT-4	>13.84 µM
CCOCn1c([Se]c2ccccc2)cc(=O)[nH]c1=O	RT activity	ROD	PBMC	14.8 µM
CSc1ccc(OP(=O)(OC[C@@H]2CC[C@H](n3cnc4c(N)ncnc43)O2)OC[C@@H]2CC[C@H](n3cnc4c(N)ncnc43)O2)cc1	cytopathic effect / trypan blue	ROD	MT-4	66 µM
CO[C@H]1[C@@H](O)[C@H](n2ccc(N)nc2=O)[C@@H](O)[C@H](O)[C@@H]1O.O=C(O)/C=C/C(=O)O	cytopathic effect / MTT	-	MT-4	>10 µg/mL
COC(=O)c1cc(O)c(O)c(O)c1	syncytia	ROD	CEM	1.7 µg/mL
Cc1cn([C@H]2C=C[C@@H](COP3(=O)Oc4ccccc4C(C)O3)O2)c(=O)[nH]c1=O	cytopathic effect / syncytia	ROD	CEM + CEM TK-	>10 µM
CN(C)c1ccc(NC2=NS(=O)(=O)NC(Cc3ccc4ccccc4c3)=C2)cc1	MTT	ROD	MT-4	>33 µM
Cc1cn([C@H]2C[C@H](N=[N+]=[N-])[C@@H](CO)O2)c(=O)[nH]c1=O	cytopathic effect / XTT	ROD	CEM + CEM-SS	0.002 µM
CN1N=C(N)c2cn([C@@H]3O[C@H](COP(=O)(O)O)[C@@H](O)[C@H]3O)c3ncnc1c23	XTT	ROD	CEM + CEM-SS	0.02 µM
CCc1c(C(=O)c2cc(C)cc(C)c2)n(CC2CC=CC2)c(=O)[nH]c1=O	cytopathic effect / XTT	-	CEM + CEM-SS	0.0004 µM
CCOCn1c(Sc2ccccc2)c(CC)c(=O)[nH]c1=O	cytopathic effect / MTT	ROD	MT-4	>100 µM
CO[C@H]1[C@@H](O)[C@H](n2cnc3c(N)ncnc32)[C@@H](O)[C@H](O)[C@@H]1O	cytopathic effect / MTT	-	MT-4	<10 µg/mL
CC(=O)c1ccc(Nc2ncccc2C(=O)c2cc(C)cc(C)c2)cc1	MTT	ROD	MT-4	>34.78 µM
O=S1(=O)N=C(Nc2ccccc2Cl)C=C(Cc2ccccc2)N1	MTT	ROD	MT-4	>182 µM
C=C(C)OC(=O)N1c2cc(Cl)ccc2NC(=S)C1(C)C	p24	ROD	PBL	>10 µM
Cc1cn([C@H]2C[C@H](F)[C@@H](CO)O2)c(=O)[nH]c1=O	ELISA	2300	PBMC	0.006 µM
Cc1cn([C@@H]2O[C@H](CO[Si](C)(C)C(C)(C)C)C3(OS(=O)(=O)C=C3N)[C@H]2O[Si](C)(C)C(C)(C)C)c(=O)n(C)c1=O	-	ROD	MT-4	>200 µM
Cc1cc(=O)oc2cc(O)c(O)cc12	syncytia	ROD	CEM	2.5 µg/mL
O=C(CSc1nncnc1-c1ccccc1Cl)Nc1ccccc1Br	MTT	ROD	MT-4	>73 µM

Again, the opening 7 rows:

smiles,method,strain or isolate,cell line,value
C=C1[C@@H](CO)C[C@H]1n1cnc2c(N)ncnc21,cytopathic effect / MTT,ROD,MT-4,63 µM
Cc1cn([C@H]2C[C@H](N=[N+]=[N-])[C@@H](CO)O2)c(=O)[nH]c1=O,cytopathic effect / MTT,-,MT-4,<10 µg/mL
CS(=O)(=O)c1ccc(OP(=O)(OC[C@@H]2C=C[C@H](n3ccc(=O)[nH]c3=O)O2)OC[C@@H]2C=C[C@H](n3ccc(=O)[nH]c3=O)O2)cc1,cytopathic effect / trypan blue,ROD,MT-4,>250 µM
Cc1cc(C)cc(C(=O)c2cccnc2Nc2ccc(CC#N)cc2)c1,MTT,ROD,MT-4,>97.48 µM
O=c1ccn([C@H]2C=C[C@@H](CO)O2)c(=O)[nH]1,cytopathic effect / trypan blue,ROD,MT-4,>20 µM
Cc1cc(C)cc(C(=O)c2cccnc2Oc2ccc(C(=O)O)cc2)c1,MTT,ROD,MT-4,>150 µM
O=C(NC1CCNCC1)c1cc(O)c(O)c(O)c1,MTT,ROD,MT-4,>42.1 µM